Measured values from several laboratories, pooled; numbers as filed in NIAID ChemDB.

Shared fields: tests in culture; species: Cryptococcus neoformans; measure: MIC

Blank or dashed fields: not listed here.

O=[N+]([O-])c1ccc2c(c1)CCc1[se]nnc1-2 ; result: 3.12 µg/mL
O=C(/C=C/c1ccc(Cl)cc1)c1ccc(Cl)cc1 ; strain or isolate: ATCC 32264 ; result: >50 µg/mL
CN(C/C=C/c1ccccc1)Cc1cccc2ccccc12 ; strain or isolate: 4 strains ; result: 17.8 µg/mL
COC(=O)C(C(=O)OC)C(CC(=O)c1ccccc1)c1ccc2ccccc2c1 ; strain or isolate: ATCC 32264 ; result: >50 µg/mL
COc1cc(O)c2c(c1)C(=O)c1c(cc3c(c1O)-c1c(cc(C)c(C(=O)NC(CO)C(=O)O)c1O)[C@H](OC1OC(C)C(O)C(OC4OCC(O)C(O)C4O)C1O)C3O)C2=O ; strain or isolate: IAM 4514 ; result: 1.6 µg/mL
OC(Cn1cncn1)(Cn1cncn1)c1ccc(F)cc1F ; strain or isolate: H99 ΔFRR1 mutant ; result: 6.25 µg/mL
COc1cccc(/C=C/C(=O)c2ccc(Br)cc2)c1 ; strain or isolate: ATCC 32264 ; result: >50 µg/mL
CC(C)(C)C1CCC(CN2C3=NC[C@H](C4CCCCC4)N3C[C@@H]2C2CCCCC2)CC1 ; strain or isolate: ATCC 32045 ; result: 4–8 µg/mL
CCC(C)CC(C)CCCCCCCCC(=O)N[C@H]1C[C@@H](O)[C@@H](OCCN)NC(=O)[C@@H]2C[C@@H](O)CN2C(=O)[C@H]([C@H](O)CCN)NC(=O)[C@H]([C@H](O)[C@@H](O)c2ccc(O)cc2)NC(=O)[C@@H]2C[C@@H](O)CN2C(=O)[C@H]([C@@H](C)O)NC1=O ; strain or isolate: MY2062 ; result: 16 µg/mL
CC(C)(C)C1CCC(CN2C3=NC[C@H](C4CCCCC4)N3C[C@H]2C2CCCCC2)CC1 ; strain or isolate: ATCC 32045 ; result: 8–16 µg/mL
COc1ccc(/C=C/C(=O)c2ccc(C)cc2)cc1 ; strain or isolate: ATCC 32264 ; result: >50 µg/mL
O=[N+]([O-])Sc1ccc2c(c1)-c1nn[se]c1CC2 ; result: 12.5 µg/mL
Cc1ccc(/C=C/C(=O)c2ccccc2)cc1 ; strain or isolate: ATCC 32264 ; result: >50 µg/mL
CCCCCCCCCCCCNC1CCc2ccc(O)cc2C1 ; result: 2 µM
C(=C\c1ccccc1)/CN(Cc1cccc2ccccc12)n1cnnc1 ; result: >200 µM
COc1cc(O)c2c(=O)oc(CO)c(CO)c2c1C ; strain or isolate: ATCC 90113 ; read by: broth dilution / absorbance ; result: >128 µg/mL
Cc1ccc(C2OC(=O)/C(=C/c3ccc(O)c(O)c3)C2C(=O)O)cc1O ; strain or isolate: ATCC 36556 ; result: 100 µg/mL
CCN1C2=NC[C@H](C3CCCCC3)N2C[C@@H]1Cc1ccccc1 ; strain or isolate: ATCC 32045 ; result: >125 µg/mL
CCCCCCCCCCCCNC1CCc2cc(OC)ccc2C1 ; result: 8 µM
CC(=O)O[C@@H]1C[C@@]23C(=O)OC[C@](C)([C@@H]2CC[C@H]2C3=CC[C@@]3(C)[C@H](C(=O)O)[C@@](C)([C@H](C)C(C)C)CC[C@]23C)[C@H]1O[C@@H]1O[C@H](CO)[C@@H](O)[C@H](O)[C@H]1O ; strain or isolate: MY2061 ; result: >64 µg/mL
CC(C/C=C/C=C/CC/C=C\C=C\CCC(C)(C)C)C(O)C(O)C(O)C(O)C(O)C1OC(=O)C(O)C1O ; strain or isolate: IAM 4514 ; result: 3.1 µg/mL
CC(C)[C@@H](C)/C=C/[C@@H](C)[C@H]1CCC2=C3[C@@H](O)C4OC45C[C@@H](OC(=O)[C@@H](N)[C@@H](OS(=O)(=O)O)C(C)C)CC[C@]5(C)[C@H]3CC[C@@]21C(=O)O ; strain or isolate: MY2061 ; result: >32 µg/mL
COc1cccc2c1CC(Nc1ccccc1)CC2 ; result: 64 µM
CC(C)(C)c1ccc(CN(Cc2cccc3ccccc23)n2ccnc2)cc1 ; result: >200 µM
CCN1C2=NC[C@H](Cc3ccccc3)N2C[C@H]1CC1CCCCC1 ; strain or isolate: ATCC 32045 ; result: 62–125 µg/mL
Clc1ccc(C(Cn2ccnc2)OCc2csc3c(Cl)cccc23)c(Cl)c1 ; strain or isolate: 3 strains ; result: 0.12 µg/mL
O=C(/C=C/c1ccc(Cl)cc1Cl)c1ccc(Cl)cc1Cl ; strain or isolate: ATCC 32264 ; result: >50 µg/mL
c1ccc(C[C@H]2CN=C3N(CCC45CC6CC(CC(C6)C4)C5)[C@@H](Cc4ccccc4)CN32)cc1 ; strain or isolate: ATCC 32045 ; result: 16–32 µg/mL
CCC(C)CC(C)CCCCCCCCC(=O)N[C@H]1C[C@@H](O)[C@H](NCCN)NC(=O)[C@@H]2[C@@H](O)CCN2C(=O)[C@H]([C@H](O)CCN)NC(=O)[C@H]([C@H](O)[C@@H](O)c2ccc(O)cc2)NC(=O)[C@@H]2C[C@@H](O)CN2C(=O)[C@H]([C@@H](C)O)NC1=O ; strain or isolate: H99 ΔFRR1 mutant ; result: 25 µg/mL
C1CCC(C[C@H]2CN3C(=NC[C@H]3CC3CCCCC3)N2CCC23CC4CC(CC(C4)C2)C3)CC1 ; strain or isolate: ATCC 32045 ; result: 4–8 µg/mL
c1ccc2c(c1)CCc1[se]nnc1-2 ; result: 12.5 µg/mL
CCCCCCCCCCNC1CCc2cccc(O)c2C1 ; result: 1 µM
C1CCC([C@H]2CN3C(=NC[C@H]3C3CCCCC3)N2CCC23CC4CC(CC(C4)C2)C3)CC1 ; strain or isolate: ATCC 32045 ; result: 4–8 µg/mL
C=C(CC[C@@H](C)[C@H]1C[C@@H](O)[C@@]2(C(=O)O)C3=C(CC[C@]12C)[C@@]1(C)CC[C@H](O[C@@H]2O[C@@H](CO)[C@H](OC)[C@@H](O)[C@@H]2O)C(=C)[C@@H]1CC3)C(C)C ; strain or isolate: MY2062 ; result: 32 µg/mL
CC(C)(C)C1CCC(CN2C3=NC[C@H](C4CCCCC4)N3C[C@@H]2CC2CCCCC2)CC1 ; strain or isolate: ATCC 32045 ; result: 8–16 µg/mL
CCCCCCCCCCCCNC1CCc2ccc(OC)cc2C1 ; result: 4 µM
C[C@H]1CCC/C=C/[C@@H]2C[C@H](O)C[C@H]2[C@@H](O)/C=C/C(=O)O1 ; strain or isolate: ATCC 90113 ; read by: broth dilution / absorbance ; result: >128 µg/mL
COc1cccc(/C=C/C(=O)c2ccccc2)c1 ; strain or isolate: ATCC 32264 ; result: >50 µg/mL
CC(C)(C)C1CCC(CN2C3=NC[C@@H](C4CCCCC4)N3C[C@H]2C2CCCCC2)CC1 ; strain or isolate: ATCC 32045 ; result: 4–8 µg/mL
CO/C1=C\C(C)=C\[C@@H](C)[C@@H](O)[C@@H](C)C/C(C)=C/C=C/[C@H](OC)[C@@H]([C@@H](C)[C@@H](O)[C@H](C)[C@@]2(O)C[C@@H](O)[C@H](C)[C@@H](C(C)C)O2)OC1=O ; strain or isolate: H99 ΔFRR1 mutant ; result: >62.2 µg/mL

For reference, 4 entries again:

SMILES | strain or isolate | read by | result
CC(C)(C)C1CCC(CN2C3=NC[C@H](C4CCCCC4)N3C[C@@H]2CC2CCCCC2)CC1 | ATCC 32045 |  | 8–16 µg/mL
CCN1C2=NC[C@H](Cc3ccccc3)N2C[C@H]1CC1CCCCC1 | ATCC 32045 |  | 62–125 µg/mL
COc1cccc(/C=C/C(=O)c2ccc(Br)cc2)c1 | ATCC 32264 |  | >50 µg/mL
CN(C/C=C/c1ccccc1)Cc1cccc2ccccc12 | 4 strains |  | 17.8 µg/mL

Two numbers with a dash give a range or band. Neighbouring rows are from separate reports.